{"source": "PubChem BioAssay AID504761 (Drosophila RNAi Screening Center, 2011)", "assay": "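Fly genes whose silencing reduces dengue virus type 2 infection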 (primary screen)", "cells": "D.Mel-2 cells from Drosophila", "reagent": "long dsRNA against Drosophila genes", "challenge": "infection with dengue virus type 2; dose and infection time not stated", "detection": "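Cells stained for dengue envelope protein and imaged; percent of infected cells per well on duplicate plates, ranked by infection, with stained nuclei counted for cell number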", "scale": "infection score: higher = more virus-infected cells; cell count: higher = more cells in the well", "rule for the call": "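Very low infection ranking in both replicate wells (chance probability at most 0.065), then a retest showing infection dropped 1.5-fold or more at p below 0.05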", "calls": "active = confirmed: knock-down lowers infection; inactive = not picked or not confirmed", "note": "The deposit covers about 22,000 reagents; below is an unselected part of those with a known target gene and a result. Of all reagents, 116 (0.52%) were called active. 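Calls depend on retest data that are not deposited; infection was ranked per plate without normalising between plates; the unit of the infection score is not given.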 The raw values are shown without normalisation. Not given: the amount of reagent, the time to read-out."}
{"predicted target": "CG7432", "DRSC id": "DRSC16243", "infection score, replicate 1": 13.7, "infection score, replicate 2": 4.97, "cell count, replicate 1": 6372, "cell count, replicate 2": 6657, "Call": "inactive"}
{"predicted target": "CG4461", "DRSC id": "DRSC10423", "infection score, replicate 1": 4.1, "infection score, replicate 2": 5, "cell count, replicate 1": 5860, "cell count, replicate 2": 6177, "Call": "inactive"}
{"predicted target": "CG4461", "DRSC id": "DRSC29266", "infection score, replicate 1": 19.4, "infection score, replicate 2": 19.2, "cell count, replicate 1": 5682, "cell count, replicate 2": 6200, "Call": "inactive"}
{"predicted target": "RfC4 (Replication factor C subunit 4)", "DRSC id": "DRSC08691", "infection score, replicate 1": 10.5, "infection score, replicate 2": 2.24, "cell count, replicate 1": 5712, "cell count, replicate 2": 5807, "Call": "inactive"}
{"predicted target": "RfC4 (Replication factor C subunit 4)", "DRSC id": "DRSC29522", "infection score, replicate 2": 2.36, "cell count, replicate 1": 263, "cell count, replicate 2": 552, "Call": "inactive"}
{"predicted target": "beat-VII (beaten path VII)", "DRSC id": "DRSC13780", "infection score, replicate 1": 7.71, "infection score, replicate 2": 3.54, "cell count, replicate 1": 4839, "cell count, replicate 2": 5196, "Call": "inactive"}
{"predicted target": "beat-VII (beaten path VII)", "DRSC id": "DRSC14743", "infection score, replicate 2": 19.4, "cell count, replicate 1": 375, "cell count, replicate 2": 2982, "Call": "inactive"}
{"predicted target": "beat-VII (beaten path VII)", "DRSC id": "DRSC22825", "infection score, replicate 1": 3.53, "infection score, replicate 2": 23.2, "cell count, replicate 1": 5075, "cell count, replicate 2": 3670, "Call": "inactive"}

Sorted by “infection score, replicate 2” (highest first): some entries from above
{"predicted target": "beat-VII (beaten path VII)", "DRSC id": "DRSC22825", "infection score, replicate 1": 3.53, "infection score, replicate 2": 23.2, "cell count, replicate 1": 5075, "cell count, replicate 2": 3670, "Call": "inactive"}
{"predicted target": "beat-VII (beaten path VII)", "DRSC id": "DRSC14743", "infection score, replicate 2": 19.4, "cell count, replicate 1": 375, "cell count, replicate 2": 2982, "Call": "inactive"}

Next results follow.
{"predicted target": "IRSp53 (Insulin receptor substrate 53 kDa)", "DRSC id": "DRSC10891", "infection score, replicate 1": 1.84, "infection score, replicate 2": 1.51, "cell count, replicate 1": 5755, "cell count, replicate 2": 6228, "Call": "inactive"}
{"predicted target": "CG16926", "DRSC id": "DRSC06637", "infection score, replicate 1": 13, "infection score, replicate 2": 6.52, "cell count, replicate 1": 5306, "cell count, replicate 2": 2148, "Call": "inactive"}
{"predicted target": "nab", "DRSC id": "DRSC08455", "infection score, replicate 1": 1.19, "infection score, replicate 2": 0.83, "cell count, replicate 1": 6201, "cell count, replicate 2": 5921, "Call": "inactive"}
{"predicted target": "nab", "DRSC id": "DRSC08456", "infection score, replicate 1": 3.38, "infection score, replicate 2": 2.24, "cell count, replicate 1": 5777, "cell count, replicate 2": 5527, "Call": "inactive"}
